According to ChEMBL document CHEMBL3045889 (Pest Manag Sci, 2012):
Converted amounts (≈) assume the structure as drawn.

Assays:
Fusarium graminearum [1] = experiment: Antifungal activity against beta2 tubulin over-expressing Fusarium graminearum JOE assessed as inhibition of mycelial growth
Fusarium graminearum [2] = experiment: Antifungal activity against Fusarium graminearum JT04 assessed as inhibition of mycelial growth
Fusarium graminearum [3] = experiment: Antifungal activity against beta1 tubulin deletion mutant Fusarium graminearum DBF200Y containing site-directed mutant at codon 200 of beta2 tubulin assessed as inhibition of mycelial growth
Fusarium graminearum [4] = experiment: Antifungal activity against Fusarium graminearum F200Y containing site-directed mutant at codon 200 of beta2 tubulin assessed as inhibition of mycelial growth
Fusarium graminearum [5] = experiment: Antifungal activity against beta1 tubulin deletion mutant Fusarium graminearum DBF167Y containing site-directed mutant at codon 167 of beta2 tubulin assessed as inhibition of mycelial growth
Fusarium graminearum [6] = experiment: Antifungal activity against Fusarium graminearum F167Y containing site-directed mutant at codon 167 of beta2 tubulin assessed as inhibition of mycelial growth
Fusarium graminearum [7] = experiment: Antifungal activity against Fusarium graminearum Y50C containing site-directed mutant at codon 50 of beta2 tubulin assessed as inhibition of mycelial growth
Fusarium graminearum [8] = experiment: Antifungal activity against beta1 tubulin deletion mutant Fusarium graminearum DB Y50C containing site-directed mutant at codon 50 of beta2 tubulin assessed as inhibition of mycelial growth
Fusarium graminearum [9] = experiment: Antifungal activity against beta1 tubulin deletion mutant Fusarium graminearum DB2-145 assessed as inhibition of mycelial growth
Fusarium graminearum [10] = experiment: Antifungal activity against Fusarium graminearum E198K containing site-directed mutant at codon 198 of beta2 tubulin assessed as inhibition of mycelial growth
Fusarium graminearum [11] = experiment: Antifungal activity against beta1 tubulin deletion mutant Fusarium graminearum DBE198K containing site-directed mutant at codon 198 of beta2 tubulin assessed as inhibition of mycelial growth
Fusarium graminearum [12] = experiment: Antifungal activity against beta2 tubulin deletion mutant Fusarium graminearum DN83 assessed as inhibition of mycelial growth
Fusarium graminearum [13] = experiment: Antifungal activity against beta2 tubulin over-expressing Fusarium graminearum 2OE assessed as inhibition of mycelial growth
Fusarium graminearum [14] = experiment: Antifungal activity against wild type Fusarium graminearum 2021 assessed as inhibition of mycelial growth

COC(=O)Nc1nc2ccccc2[nH]1 [CARBENDAZIM]
EC50 (Fusarium graminearum [1]): 14.1 µg/mL (≈ 73.9 µM)
EC50 (Fusarium graminearum [2]): 4.51 µg/mL (≈ 23.6 µM)
MIC (Fusarium graminearum [3]): > 100 µg/mL
MIC (Fusarium graminearum [4]): 50 µg/mL (≈ 262 µM)
EC50 (Fusarium graminearum [5]): 25.2 µg/mL (≈ 132 µM)
MIC (Fusarium graminearum [5]): 100 µg/mL (≈ 523 µM)
MIC (Fusarium graminearum [6]): 50 µg/mL (≈ 262 µM)
MIC (Fusarium graminearum [7]): 20 µg/mL (≈ 105 µM)
EC50 (Fusarium graminearum [8]): 9.72 µg/mL (≈ 50.8 µM)
MIC (Fusarium graminearum [8]): 50 µg/mL (≈ 262 µM)
EC50 (Fusarium graminearum [9]): 0.68 µg/mL (≈ 3.56 µM)
MIC (Fusarium graminearum [9]): 1.4 µg/mL (≈ 7.32 µM)
MIC (Fusarium graminearum [10]): 100 µg/mL (≈ 523 µM)
EC50 (Fusarium graminearum [11]): 10.2 µg/mL (≈ 53.1 µM)
EC50 (Fusarium graminearum [12]): 0.1 µg/mL (≈ 0.523 µM)
MIC (Fusarium graminearum [12]): 1 µg/mL (≈ 5.23 µM)
EC50 (Fusarium graminearum [13]): 0.64 µg/mL (≈ 3.35 µM)
MIC (Fusarium graminearum [13]): 1.4 µg/mL (≈ 7.32 µM)
MIC (Fusarium graminearum [14]): 1.4 µg/mL (≈ 7.32 µM)
